Publication PMC3747263 (PLoS ONE, 2013)

The chains behind the UniProt entries cited, without tags or fusion partners. Residues count along the entry.
UniProt Q9HYN5, 2-115 limits assumed: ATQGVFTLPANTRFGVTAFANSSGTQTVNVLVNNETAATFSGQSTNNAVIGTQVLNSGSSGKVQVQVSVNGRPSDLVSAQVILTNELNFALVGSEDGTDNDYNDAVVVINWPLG

Target: LecB (PA-IIL) (Pseudomonas aeruginosa, UniProt Q9HYN5)
Experiment: isothermal titration calorimetry
Assay type: binding
Details: read-out: LecB / KD; 25 °C, pH 7.5 (20 mM Tris/HCl, 150 mM NaCl, 0.03 mM CaCl2); SD below 15%; some table ligands may carry one more reducing-end sugar (italics lost)

CC(=O)N[C@H]1[C@H]([C@H](O)[C@H](O)CO)O[C@@](O[C@H]2[C@@H](O)[C@@H](CO)O[C@@H](O[C@H]3[C@H](O[C@@H]4O[C@@H](C)[C@@H](O)[C@@H](O)[C@@H]4O)[C@@H](NC(C)=O)C(O)O[C@@H]3CO)[C@@H]2O)(C(=O)O)C[C@@H]1O (stereo partly shown)
Kd: 5.7 µM
